Results reported in patent publication EP2565276A1.

Test system: YopH phosphatase
Settings: emission at 465 nm over time; YopH lacks the allosteric site found in PTP1b

Question: How did the “dissociation from acrylodan-labeled PTP1b on addition of YopH phosphatase” value turn out when `CCc1oc2cc(S(=O)(=O)Nc3ccc(S(=O)(=O)Nc4nccs4)cc3)ccc2c1C(=O)c1cc(Br)c(O)c(Br)c1` was run?
Answer: Its value is “did not dissociate”.
